# Values quoted from earlier work as cited in patent publication US20220313828A1, “Use of low-molecular glycosidically bound terminal galactosides and fucosides for bonding to toxins that act as galectins in the treatment of intoxications, in particular ricin intoxications” (published 2022).
# What was measured:
# [1] = system: human macrophage cells; settings: human macrophage cells in vitro, reference (2)
# [2] = molecular target: ricin (Ricinus communis, UniProt P02879); settings: reference (1)
Molecule,effect on toxic effect of ricin [1],effect on ricin intoxication [2]
Epigallocatechin gallate,inhibits the toxic effect,
OC[C@H]1O[C@@H](O[C@H]2[C@H](O)[C@@H](O)C(O)O[C@@H]2CO)[C@H](O)[C@@H](O)[C@H]1O (some centres unmarked),,reduce a ricin intoxication
